From paper PMC4050313, “Panaxadiol and Panaxatriol Derivatives as Anti-Hepatitis B Virus Inhibitors” (Natural Products and Bioprospecting, 2014)

Key:
Format in all cases: cell-based, Hepatitis B virus
Details in all cases: SI (selectivity index) = CC50/IC50
HBV DNA replication = experiment: Inhibition of HBV DNA replication, real-time PCR, HepG 2.2.15 cells
Method: (§1) Based on our previous description, inhibitory activity on HBV (HBsAg, HBeAg and HBV DNA) was evaluated. […] Cytotoxicity was assayed with a modified 3-(4,5-dimethylthiazole-2-yl)-2,5-diphenyltetrazolium bromide (MTT) method (Gibco Invitrogen, Carlsbad, CA, USA). The anti-HBV antigen secretion activities were determined by the enzyme linked immunosorbent assay (ELISA; Autobio Diagnostics Co., Ltd, China). A real-time PCR assay was applied to detect the inhibitory activity on HBV DNA replication.

HBsAg secretion = test system: HBsAg secretion
Method: as §1

HBeAg secretion = test system: HBeAg secretion
Method: as §1

Compound | HBV DNA SI (HBV DNA replication) | HBsAg SI (HBsAg secretion) | HBeAg SI (HBeAg secretion)
CC1(C)CCC[C@](C)([C@H]2CC[C@]3(C)[C@@H]2[C@H](O)C[C@@H]2[C@@]4(C)CC[C@H](OC(=O)c5ccccc5)C(C)(C)[C@@H]4CC[C@]23C)O1 [Compound 8, 3-O-Benzoyl panaxadiol] | 4.0 |  | 
CC1(C)CCCC(C)(C2CCC3(C)C2C(O)CC2C4(C)CCC(OC(=O)c5ccccc5O)C(C)(C)C4CCC23C)O1 (centres unmarked) [Compound 9, 3-O-Salicyloyl panaxadiol] | 4.9 | 1.0 | 
CC1(C)CCCC(C)(C2CCC3(C)C2C(O)CC2C4(C)CCC(OC(=O)CCCC(=O)O)C(C)(C)C4CCC23C)O1 (centres unmarked) [Compound 15, 3-O-Glutaryl panaxadiol] | 3.1 | 1.6 | 
CC1(C)CCC[C@](C)([C@H]2CC[C@]3(C)[C@@H]2[C@H](O)C[C@@H]2[C@@]4(C)CC[C@H](OC(=O)c5sccc5Cl)C(C)(C)[C@@H]4CC[C@]23C)O1 [Compound 6, 3-O-(3′-Chloro)-thenoyl panaxadiol] | >37.9 |  | 5.8
COCC(=O)OC1CC2(C)C(CC(O)C3C(C4(C)CCCC(C)(C)O4)CCC32C)C2(C)CCC(OC(=O)COC)C(C)(C)C12 (centres unmarked) [Compound 25, 3,6-O-Di(2′-methoxyl)acetoxyl-panaxatriol] |  |  | 1.54
CC(CC(=O)O)CC(=O)O[C@H]1CC[C@]2(C)[C@H]3C[C@@H](O)[C@@H]4[C@@H]([C@@]5(C)CCCC(C)(C)O5)CC[C@@]4(C)[C@]3(C)CC[C@H]2C1(C)C (some centres unmarked) [Compound 17, 3-O-(3′-Methyl) diglutaryl panaxadiol] | 10.8 |  | 
CC1(C)CCC[C@](C)([C@H]2CC[C@]3(C)[C@@H]2[C@H](O)C[C@@H]2[C@@]4(C)CC[C@H](O)C(C)(C)[C@@H]4CC[C@]23C)O1 [PD, Panaxadiol] | 6.2 |  | 
CC1(C)CCCC(C)(C2CCC3(C)C2C(O)CC2C4(C)CCC(OC(=O)CCC(=O)O)C(C)(C)C4CCC23C)O1 (centres unmarked) [Compound 14, 3-O-Succinyl panaxadiol] | 10.7 |  | 1.1
CCOCC(=O)O[C@H]1CC[C@]2(C)[C@H]3C[C@@H](O)[C@@H]4[C@@H]([C@@]5(C)CCCC(C)(C)O5)CC[C@@]4(C)[C@]3(C)CC[C@H]2C1(C)C [Compound 13, 3-O-2′-Ethyoxyl-acetyl panaxadiol] |  | 2.5 | 
CC1(C)CCCC(C)(C2CCC3(C)C2C(O)CC2C4(C)CCC(OC(=O)C5CCCC5)C(C)(C)C4CCC23C)O1 (centres unmarked) [Compound 2, 3-O-Cyclopentanecarbonyl panaxadiol] | 4.2 | 1.7 | 
CC1(C)CCCC(C)(C2CCC3(C)C2C(O)CC2C4(C)CCC(OC(=O)c5ccco5)C(C)(C)C4CCC23C)O1 (centres unmarked) [Compound 3, 3-O-(2′-Furoyl) panaxadiol] | 23.6 | 1.4 | 
CC1(C)CCCC(C)(C2CCC3(C)C2C(O)CC2C4(C)CCC(OC(=O)c5cccnc5)C(C)(C)C4C(OC(=O)c4cccnc4)CC23C)O1 (centres unmarked) [Compound 24, 3,6-O-Dinicotinoyl-panaxatriol] |  |  | 1.54
CC1(C)CCC[C@](C)([C@H]2CC[C@]3(C)[C@@H]2[C@H](O)C[C@@H]2[C@@]4(C)CC[C@H](OC(=O)c5cc(O)c(O)c(O)c5)C(C)(C)[C@@H]4CC[C@]23C)O1 [Compound 10, 3-O-Galloyl panaxadiol] | 3.6 |  | 
CC1(C)CCCC(C)(C2CCC3(C)C2C(O)CC2C4(C)CCC(OC(=O)c5cccs5)C(C)(C)C4CCC23C)O1 (centres unmarked) [Compound 4, 3-O-(2′-Thenoyl) panaxadiol] | > 115.7 | > 62.0 | > 105.1
CC1(C)CCC[C@](C)([C@H]2CC[C@]3(C)[C@@H]2[C@H](O)C[C@@H]2[C@@]4(C)CC[C@H](O)C(C)(C)[C@@H]4[C@@H](O)C[C@]23C)O1 [PT, Panaxatriol] | 3.6 |  | 
C[C@H](Cn1cnc2c(N)ncnc21)OCP(=O)(O)O [Tf, Tenofovir, reference compound] | >2417.3 | >1.2 | >1.4
CC(C)(CC(=O)O)CC(=O)O[C@H]1CC[C@]2(C)[C@H]3C[C@@H](O)[C@@H]4[C@@H]([C@@]5(C)CCCC(C)(C)O5)CC[C@@]4(C)[C@]3(C)CC[C@H]2C1(C)C [Compound 18, 3-O-(3′,3′-Dimethyl) glutaryl panaxadiol] | 2.5 |  | 
CC1(C)CCCC(C)(C2CCC3(C)C2C(O)CC2C4(C)CCC(OC(=O)c5cccnc5)C(C)(C)C4CCC23C)O1 (centres unmarked) [Compound 11, 3-O-Nicotinoyl panaxadiol] | 9.8 |  | 
CC1(C)CCCC(C)(C2CCC3(C)C2C(O)CC2C4(C)CCC(OC(=O)CCC(=O)O)C(C)(C)C4C(OC(=O)CCC(=O)O)CC23C)O1 (centres unmarked) [Compound 21, 3,6-O-Disuccinyl panaxatriol] | >4.1 |  | 
